Anti-infective test results gathered from many reports (values: NIAID ChemDB through PubChem).

Fold resistance has wild type as its base. Lines come from different laboratories, so protocols vary. Blank or dashed fields: not listed here. ECn: concentration that inhibits the pathogen or its effect by n%. A number after MIC or MFC names an inhibition level or a share of isolates. ICn: concentration for n% inhibition. Percent inhibition refers to the dose given; in toxicity tests it is the harm to the cells.

smiles | test | species | strain | mutations | cell line | protein | method | read-out | dose | value
Nc1nc2c(ncn2[C@H]2CC[C@@H](COP(=O)(O)OP(=O)(O)OP(=O)(O)O)O2)c(=O)[nH]1 | target | HIV |  | RT-N137K |  | Reverse transcriptase | nucleotide incorporation / radiometric | IC50 |  | 6.4 µM
Nc1ncnc2c1ncn2C[C@@H](CO)OCP(=O)(O)O | culture | Adenovirus | WT 300 (TYPE 5) |  |  |  | virus yield | EC90 |  | 4 µg/mL
O=C(NC(=O)c1c(F)cccc1F)Nc1cc(Cl)c(OC(F)(F)C(F)C(F)(F)F)cc1Cl | culture | Vittaforma corneae |  |  | RK-13 |  |  | inhibition | 1.25 µg/mL | 36.9%
O=C1Nc2ccc(Cl)cc2[C@@](C#CC2CC2)(C(F)(F)F)O1 | host protein | Human |  |  |  | DNA polymerase beta |  | IC50 |  | 314.2 µM
CCOc1ccc2ccccc2c1C(=O)Nc1nnc(NCc2ccc(OC)c(OC)c2)s1 | target | Human cytomegalovirus |  |  |  | Polymerase |  | IC50 |  | <25 µM
CC(C)=CCOc1cc(NC(=S)c2ccoc2C)ccc1Cl | target | HIV |  | RT-N137A |  | Reverse transcriptase | nucleotide incorporation / radiometric | fold resistance |  | 0.27
C[C@H](Cc1ccc(O)c(O)c1)[C@@H](C)Cc1ccc(O)c(O)c1 | culture | Candida albicans | CCC 128-2000 |  |  |  | broth dilution | MIC100 |  | 250 µg/mL
Nc1ncnc2c1ncn2C[C@H](CO)OCP(=O)(O)O | culture | Adenovirus | 13306 (TYPE 8) |  |  |  | virus yield | EC90 |  | 0.2 µg/mL
CC(C)c1cc(C(C)C)c(C(=O)Nc2nnc(NCc3ccco3)s2)c(C(C)C)c1 | target | Human cytomegalovirus |  |  |  | Polymerase |  | IC50 |  | >25 µM
Nc1ccn(C[C@@H](CO)OCP(=O)(O)O)c(=O)n1 | culture | Adenovirus | WT 300 (TYPE 5) |  |  |  | virus yield | EC90 |  | 0.4 µg/mL
CCOC(=O)Nc1cc(NC(C)/C(=N/O)c2ccc(O)cc2)c([N+](=O)[O-])c(N)n1 | culture | Encephalitozoon intestinalis |  |  | RK-13 |  |  | inhibition | 0.1 µg/mL | 0%
O=C(/C=C/c1ccccc1)Nc1nnc(NCCNc2ccccc2)s1 | target | Human cytomegalovirus |  |  |  | Polymerase |  | IC50 |  | >25 µM
CC(C)=CCN1Cc2cc(Cl)cc3[nH]c(=S)n(c23)C[C@@H]1C | culture | HIV-1 |  | RT-M41L T215Y Y181C | MT-4 |  |  | EC95 |  | >3 µM
Cc1ccc(C(=O)Nc2nnc(NCCNc3ccccc3)s2)cc1 | target | Human cytomegalovirus |  |  |  | Polymerase |  | IC50 |  | >25 µM
c1ccc2[nH]c(-c3cscn3)nc2c1 | culture | Encephalitozoon intestinalis |  |  | RK-13 |  |  | inhibition | 0.1 µg/mL | 47.1%
C#CC[C@@H](C(=O)N[C@H](/C=C/C(=O)OCC)C[C@@H]1CCNC1=O)n1cccc(NC(=O)c2cc(C)on2)c1=O | culture | Rhinovirus | Serotype 89 |  | H1-HELA |  | cytopathic effect / XTT | EC50 |  | 0.011 µM
CCOc1ccc2ccccc2c1C(=O)Nc1nnc(NCCc2cccs2)s1 | target | Human cytomegalovirus |  |  |  | Polymerase |  | IC50 |  | <25 µM
CC[C@H]1C(=O)Nc2ccc(F)cc2N1C(=O)OC(C)C | target | HIV |  | RT-N137A |  | Reverse transcriptase | nucleotide incorporation / radiometric | IC50 |  | 0.01 µM
CCCCCCCC/C=C/CCCCCCCC(=O)Nc1nnc(NCc2cccnc2)s1 | target | Human cytomegalovirus |  |  |  | Polymerase |  | IC50 |  | <25 µM
COc1ccc2cc3[n+](cc2c1OC)CCc1cc2c(cc1-3)OCO2 | culture | Encephalitozoon intestinalis |  |  | RK-13 |  |  | inhibition | 0.1 µg/mL | 47%
CCCCCCCCCCCNc1nnc(NC(=O)c2ccc(Br)cc2)s1 | target | Human cytomegalovirus |  |  |  | Polymerase |  | IC50 |  | >25 µM
CCO/N=C/c1ccc(OCCC2CCN(c3ccc(C)nn3)CC2)cc1 | culture | Rhinovirus | 353 (ICAM-1 receptor group 13) |  | KB |  | neutral red | EC50 |  | 0.109 µM
O=C(Nc1nnc(NCCc2cccs2)s1)c1cccc([N+](=O)[O-])c1 | target | Human cytomegalovirus |  |  |  | Polymerase |  | IC50 |  | >25 µM
CCOC(=O)Nc1nc(NC(=O)OCC)c2c(c1N)NC(C)C(c1ccccc1)=N2 | culture | Encephalitozoon intestinalis |  |  | RK-13 |  |  | inhibition | 0.1 µg/mL | 0%

Repeating the first 3 entries:

Nc1nc2c(ncn2[C@H]2CC[C@@H](COP(=O)(O)OP(=O)(O)OP(=O)(O)O)O2)c(=O)[nH]1 ; test: target ; species: HIV ; mutations: RT-N137K ; protein: Reverse transcriptase ; method: nucleotide incorporation / radiometric ; read-out: IC50 ; value: 6.4 µM
Nc1ncnc2c1ncn2C[C@@H](CO)OCP(=O)(O)O ; test: culture ; species: Adenovirus ; strain: WT 300 (TYPE 5) ; method: virus yield ; read-out: EC90 ; value: 4 µg/mL
O=C(NC(=O)c1c(F)cccc1F)Nc1cc(Cl)c(OC(F)(F)C(F)C(F)(F)F)cc1Cl ; test: culture ; species: Vittaforma corneae ; cell line: RK-13 ; read-out: inhibition ; dose: 1.25 µg/mL ; value: 36.9%